Results of unrelated studies side by side (data: NIAID ChemDB).

Common to all: whole-cell or culture tests; organism: Herpes simplex virus 2; read-out: EC50

Blank or dashed fields: not listed here. Two numbers with a dash give a range or band. Rows are shuffled and stem from different studies. ECn is the concentration giving n% inhibition of infection, replication or growth.

compound,strain,read by,value
Nc1nc2c(ncn2C=C2CC2CO)c(=O)[nH]1,,plaque count,>100 µM
CC1=C(/C=C/C(C)=C/C=C/C(C)=C/CO)C(C)(C)CCC1,,plaque count,10 µM
Nc1nc2c(ncn2[C@H]2C=C[C@@H](CO)CC2)c(=O)[nH]1,,plaque count,0.1–1 µM
Nc1ncnc2c1ncn2C[C@@H](CO)OCP(=O)(O)O,G,cytopathic effect,13 µM
COC(=O)OP(=O)(CO[C@H](CO)Cn1cnc(N)nc1=O)OC(=O)OC,G strain,cytopathic effect,0.097 µg/mL
Nc1nc2c(ncn2[C@@H]2C=C[C@H](CO)CC2)c(=O)[nH]1,,plaque count,0.1–1 µM
O=C(O)C(F)P(=O)(O)O,Lovelace,plaque count,150 µM
Nc1nc(N)c2ncn([C@@H]3S[C@H](CO)[C@H](O)[C@@H]3F)c2n1,,,0.05 µg/mL
Nc1nc2c(ncn2C[C@]2(CO)C[C@H]2CO)c(=O)[nH]1,,,0.1–1 µM
CC(=O)OC/C=C(C)/C=C/C=C(C)/C=C/C1=C(C)CCCC1(C)C,,plaque count,36 µM
Nc1cc(OC[C@H](CO)OCP(=O)(O)O)nc(N)n1,G,cytopathic effect,51 µM
CC1=C(/C=C/C(C)=C/C=C/C(C)=C/C=O)C(C)(C)CCC1,,plaque count,0.45 µM
C[C@H](COc1cc(N)nc(N)n1)OCP(=O)(O)O,G,cytopathic effect,17 µM
Nc1nc2c(ncn2CCC(CO)CO)c(=O)[nH]1,,,1–10 µM

A second listing of 2 rows from above:

compound | strain | read by | value
Nc1nc2c(ncn2[C@H]2C=C[C@@H](CO)CC2)c(=O)[nH]1 |  | plaque count | 0.1–1 µM
C[C@H](COc1cc(N)nc(N)n1)OCP(=O)(O)O | G | cytopathic effect | 17 µM